Measured values from several laboratories, pooled; numbers as filed in NIAID ChemDB.

Shared fields: growth or infection tests; species: HIV-1

Conditions beyond the fields shown may differ between rows.

structure | changes | method | measure | cell line | strain or isolate | value
CC(C)CN(C[C@@H](O)[C@H](Cc1ccccc1)NC(=O)O[C@H]1CCOC1)S(=O)(=O)c1ccc2nc(N(C)CCN(C)C)sc2c1 |  | cytopathic effect / MTT | EC50 | MT-4 | LAI | <0.05 µM
COc1ncc(OC)c2c(C(=O)C(=O)N3CCC(=C(C#N)c4csc5ccccc45)CC3)c[nH]c12 |  | luciferase | EC50 | HeLa |  | <1 µM
Nc1nc(NC2CC2)c2ncn([C@H]3C=C[C@@H](CO)C3)c2n1 | RT-K65R L74V M184V Y115F | p24 | EC50 | MT-4 | XM-ABC-resistant | <100 µM
CC(C)CN(C[C@@H](O)[C@H](Cc1ccccc1)NC(=O)O[C@H]1CO[C@H]2OCC[C@H]21)S(=O)(=O)c1ccc2nc(NC(=O)c3ccccn3)sc2c1 |  | cytopathic effect / MTT | EC50 | MT-4 | IIIB | 0.0046 µM
Cc1cccc(Cl)c1OCCN(C)c1ccc(-c2cnc(C)c([C@H](OC(C)(C)C)C(=O)O)c2N2CCC(C)(C)CC2)cn1 |  | luminescence | EC50 | MT-2 | NL4-3 | 0.002 µM
COC[C@@H](c1ccc(C(F)(F)F)cc1)N1CCN(C2(C)CCN(C(=O)c3c(C)ncnc3C)CC2)C[C@@H]1C | M518V F519L |  | EC50 | PBMC | S | 0.00013 µM
CC1(C)c2nc(C(=O)NCc3ccc(F)cc3)c(O)c(=O)n2CCN1CC(=O)N1CCOCC1 |  | p24 | EC50 | MT-4 |  | <1 µM
CCC1=C(C(=O)OCC2CCCCC2)C(c2cc(O)c(O)c(Br)c2)NC(=O)N1 |  | p24 / ELISA | EC50 | CEM |  | ≤1 µM
Cc1ncc(-c2ccc(NCCOc3ccc(C(N)=O)cc3)cn2)c(N2CCC(C)(C)CC2)c1[C@H](OC(C)(C)C)C(=O)O |  | luminescence | EC50 | MT-2 | NL4-3 | 0.0794 µM
CC1(C)c2nc(C(=O)NCc3ccc(F)cc3)c(O)c(=O)n2CCN1Cc1cn[nH]c1 |  | p24 | EC50 | MT-4 |  | <1 µM
COc1ncc(OC)c2c(C(=O)C(=O)N3CC/C(=C(\C#N)c4ccccc4)CC3C)c[nH]c12 |  | luciferase | EC50 | HeLa |  | <1 µM
Cc1nc(CN2CCn3c(nc(C(=O)NCc4ccc(F)cc4)c(O)c3=O)C2(C)C)no1 |  | p24 | EC50 | MT-4 |  | <1 µM
COc1cc(-c2ccc(N=Nc3ccc4c(S(=O)(=O)O)cc(S(=O)(=O)O)c(N)c4c3O)c(OC)c2)ccc1N=Nc1ccc2c(S(=O)(=O)O)cc(S(=O)(=O)O)c(N)c2c1O |  | RT activity | EC50 | CEM + CEM-SS | G | 1.9 µM
Cc1ncc(-c2ccc(OCC3CC(C)(C)C3)cn2)c(N2CCC(C)(C)CC2)c1[C@H](OC(C)(C)C)C(=O)O |  | luminescence | EC50 | MT-2 | NL4-3 | 0.0016 µM
CC(C)CN(C[C@@H](O)[C@H](Cc1ccccc1)NC(=O)OCc1cncs1)S(=O)(=O)c1ccc2nc(N(C)C(=O)CN3CCOCC3)sc2c1 |  | cytopathic effect / MTT | EC50 | MT-4 | R13025 | 0.1318 µM
CCCOC(=O)c1ccc(C2NC(=O)NC(CC)=C2C(=O)OCC2CCCCC2)cc1 |  | p24 / ELISA | EC50 | CEM |  | ≤1 µM
COc1ncc(OC)c2c(C(=O)C(=O)N3CCC(=C(c4ccccc4)c4ncco4)CC3)c[nH]c12 |  | luciferase | EC50 | HeLa |  | <1 µM
CN(C)CC1c2nc(C(=O)NCc3ccc(F)cc3)c(O)c(=O)n2CCN1Cc1cocn1 |  | p24 | EC95 | MT-4 |  | 1–10 µM
CCOC(=O)c1cncc(C(=C2CCN(C(=O)C(=O)c3c[nH]c4c(-n5cnc(C)n5)ncc(OC)c34)CC2)c2ccccc2)c1 |  | luciferase | EC50 | HeLa |  | <1 µM
Cc1ccc(C)n1-c1ccc(C(=O)O)c(O)c1 |  | luciferase / cell fusion | EC50 | PBMC/5.25M7 | 93UG065 X4 CLADE D | 25.73 µM
CCC1=C(C(=O)c2ccc(F)cc2)C(c2cccc(O)c2)NC(=O)N1 |  | p24 / ELISA | EC50 | CEM |  | >5 µM
Cc1ncc(-c2ccc(NCCOc3ccc(Cl)cc3)cn2)c(N2CCC(C)(C)CC2)c1[C@H](OC(C)(C)C)C(=O)O |  | luminescence | EC50 | MT-2 | NL4-3 | 0.004 µM
CC(C)CN(C[C@@H](O)[C@H](Cc1ccccc1)NC(=O)O[C@H]1CO[C@H]2OCC[C@H]21)S(=O)(=O)c1ccc2nc(N(C)CCCN(C)C)sc2c1 |  | cytopathic effect / MTT | EC50 | MT-4 | R13025 | 0.3236 µM
CC1CN(C(=O)C(=O)c2c[nH]c3ccccc23)CC/C1=C\c1ccccc1 |  | luciferase | EC50 | HeLa |  | 1–5 µM
CCC1=C(C(=O)OCC2CCCCC2)[C@H](c2cccc(OC(=O)c3cccnc3)c2)NC(=O)N1 |  | p24 / ELISA | EC50 | CEM |  | ≤1 µM
Cc1ncc(-c2ccc(OCC3CC3C)nc2)c(N2CCC(C)(C)CC2)c1[C@H](OC(C)(C)C)C(=O)O |  | luminescence | EC50 | MT-2 | NL4-3 | 0.0042 µM
CC(C)CN(C[C@@H](O)[C@H](Cc1ccccc1)NC(=O)[C@@H](NC(=O)CNCc1cccc(F)c1)C(C)(C)C)S(=O)(=O)c1ccc2nc(NCCN3CCCC3)sc2c1 |  | cytopathic effect / MTT | EC50 | MT-4 | IIIB | 0.0575 µM
CC1(C)c2nc(C(=O)NCc3ccc(F)cc3)c(O)c(=O)n2CCN1Cc1ncco1 |  | p24 | EC50 | MT-4 |  | <1 µM
COc1cc(Cl)ccc1OCCNc1ccc(-c2cnc(C)c([C@H](OC(C)(C)C)C(=O)O)c2N2CCC(C)(C)CC2)cn1 |  | luminescence | EC50 | MT-2 | NL4-3 | 0.004 µM
CC(=O)N(CCN1CCCC1)c1nc2ccc(S(=O)(=O)N(CC(C)C)C[C@@H](O)[C@H](Cc3ccccc3)NC(=O)O[C@H]3CO[C@H]4OCC[C@H]43)cc2s1 |  | cytopathic effect / MTT | EC50 | MT-4 | R13025 | 0.0045 µM
COc1cnc(-n2ccnn2)c2[nH]cc(C(=O)C(=O)N3CCC(=C(c4ccccc4)c4n[nH]c(=O)o4)CC3)c12 |  | luciferase | EC50 | HeLa |  | <1 µM
CC(C)CN(C[C@@H](O)[C@H](Cc1ccccc1)NC(=O)OCc1cncs1)S(=O)(=O)c1ccc2nc(N(C)C(=O)CN(C)CCCN3CCCC3)sc2c1 |  | cytopathic effect / MTT | EC50 | MT-4 | IIIB | 0.0501 µM
CCC(=O)C1=C(CC2CCC(OC)CC2)NC(=O)NC1c1ccc(O)c(Cl)c1 |  | p24 / ELISA | EC50 | CEM |  | >5 µM
Nc1nc(=O)n([C@H]2C=C[C@@H](CO)O2)cc1F | RT-M41L D67N K70R T215Y K219Q | p24 | EC90 | MT-4 | XM-AZT-resistant | 1.6 µM
COc1ncc(OC)c2c(C(=O)C(=O)N3CCC(=C(c4ccccc4)c4c(C)noc4C)CC3)c[nH]c12 |  | luciferase | EC50 | HeLa |  | <1 µM
CCC1=C(C(=O)COC2CCCCC2)C(c2ccc(O)c(Cl)c2)NC(=O)N1 |  | p24 / ELISA | EC50 | CEM |  | >5 µM
CCN(C(=O)C(=O)N(C)C)C1CN(C)CCn2c1nc(C(=O)NCc1ccc(F)cc1)c(O)c2=O |  | p24 | EC95 | MT-4 |  | <1 µM
CCC(=O)C1=C(CCC2CCCC2)NC(=O)NC1c1ccc(O)c(Cl)c1 |  | p24 / ELISA | EC50 | CEM |  | >5 µM
CC(C)CN(C[C@@H](O)[C@H](Cc1ccccc1)NC(=O)O[C@H]1CCOC1)S(=O)(=O)c1ccc2nc(NCCN(C)C)sc2c1 |  | cytopathic effect / MTT | EC50 | MT-4 | IIIB | 0.0095 µM

The first 6 rows once more:

structure | changes | method | measure | cell line | strain or isolate | value
CC(C)CN(C[C@@H](O)[C@H](Cc1ccccc1)NC(=O)O[C@H]1CCOC1)S(=O)(=O)c1ccc2nc(N(C)CCN(C)C)sc2c1 |  | cytopathic effect / MTT | EC50 | MT-4 | LAI | <0.05 µM
COc1ncc(OC)c2c(C(=O)C(=O)N3CCC(=C(C#N)c4csc5ccccc45)CC3)c[nH]c12 |  | luciferase | EC50 | HeLa |  | <1 µM
Nc1nc(NC2CC2)c2ncn([C@H]3C=C[C@@H](CO)C3)c2n1 | RT-K65R L74V M184V Y115F | p24 | EC50 | MT-4 | XM-ABC-resistant | <100 µM
CC(C)CN(C[C@@H](O)[C@H](Cc1ccccc1)NC(=O)O[C@H]1CO[C@H]2OCC[C@H]21)S(=O)(=O)c1ccc2nc(NC(=O)c3ccccn3)sc2c1 |  | cytopathic effect / MTT | EC50 | MT-4 | IIIB | 0.0046 µM
Cc1cccc(Cl)c1OCCN(C)c1ccc(-c2cnc(C)c([C@H](OC(C)(C)C)C(=O)O)c2N2CCC(C)(C)CC2)cn1 |  | luminescence | EC50 | MT-2 | NL4-3 | 0.002 µM
COC[C@@H](c1ccc(C(F)(F)F)cc1)N1CCN(C2(C)CCN(C(=O)c3c(C)ncnc3C)CC2)C[C@@H]1C | M518V F519L |  | EC50 | PBMC | S | 0.00013 µM

Blank or dashed fields: not listed here. ECn: concentration that inhibits the pathogen or its effect by n%. a–b is a range or a potency band.